Anti-infective test results gathered from many reports (values: NIAID ChemDB through PubChem).

Common to all: tests on isolated targets; agent: Hepatitis C virus; protein: Nonstructural protein 5B; read-out: IC50

a–b is a range or a potency band. Blank or dashed fields: not listed here. Lines come from different laboratories, so protocols vary. ICn is the concentration giving n% inhibition.

smiles	read by	strain or isolate	result
O=C(O)c1ccc(N2C(=O)C(=Cc3ccc(-c4cccs4)o3)SC2=S)cc1	-	-	≤1 µM
CCOc1ccc(CCC2(C3CCCC3)CC(=O)CC(=O)O2)cc1F	-	-	<1 µM
CCc1ccc(-c2oc3ccc(F)cc3c2C(=O)NC)cc1	-	-	≤0.5 µM
O=C1NC(=S)SC1=Cc1ccc(-c2ccc(Cl)c(Cl)c2)o1	-	-	≤1 µM
COC1=CC(=O)OC(CCc2cccc(C(C)C)c2)(C2CCCC2)C1	-	-	10–50 µM
COc1c(-c2ccc3cc(NS(C)(=O)=O)ccc3c2)cc(-n2ccc(=O)[nH]c2=O)cc1C(C)(C)C	nucleotide incorporation	GT 1b-N	0.0022 µM
CNC(=O)c1c(-c2ccc(F)cc2)oc2cc(N(C)S(C)(=O)=O)c(OCc3ccc4c(c3)OC(C)(C)OC4=O)cc12	-	-	≤0.5 µM
O=C(O)c1ccc(N2C(=O)C(=Cc3ccc(-c4cc(F)cc(F)c4)o3)SC2=S)cc1	-	-	≤1 µM
CNC(=O)c1c(-c2ccc(F)cc2)oc2cc(N(C)S(C)(=O)=O)c(OCC#N)cc12	-	-	≤0.5 µM
CC(C)Oc1ccc(CCC2(C3CCCC3)CC(O)=C(Sc3ccc(O)cc3)C(=O)O2)cc1Cl	-	-	<1 µM
CNC(=O)c1c(-c2ccc(F)cc2)oc2cc(-c3c(COC)noc3C)c(OC)cc12	-	-	≤0.5 µM
COc1cc(CCC2(C3CCCC3)CC(O)=CC(=O)O2)ccc1O	-	-	1–10 µM
CCCc1ccc(-c2ccc(C=C3SC(=S)NC3=O)s2)cc1	-	-	≤1 µM
Cc1cc(SC2=C(O)CC(CCc3ccc(O)cc3)(C3CCCC3)OC2=O)c(C(C)(C)C)cc1OS(=O)(=O)N1CCN(C)CC1	-	-	1–10 µM
O=C(O)CCN1C(=O)C(=Cc2ccc(-c3ccc(Br)cc3)o2)SC1=S	-	-	≤1 µM
CCc1cc2c(C(=O)NC)c(-c3ccc(F)cc3)oc2cc1N(CS(C)(=O)=O)c1cscn1	-	-	≤0.5 µM
O=C(O)c1ccc(N2C(=O)C(=Cc3ccccc3)SC2=S)cc1	-	-	≤1 µM
CC(=O)Nc1cc(C(C)(C)C)c(SC2=C(O)CC(CCc3ccc(O)cc3)(C3CCCCC3)OC2=O)cc1C	-	-	>50 µM

A second listing of 2 rows from above:

smiles,read by,strain or isolate,result
CNC(=O)c1c(-c2ccc(F)cc2)oc2cc(-c3c(COC)noc3C)c(OC)cc12,-,-,≤0.5 µM
CCc1cc2c(C(=O)NC)c(-c3ccc(F)cc3)oc2cc1N(CS(C)(=O)=O)c1cscn1,-,-,≤0.5 µM